Pooled drug test results. Numbers come from NIAID ChemDB, via PubChem.

Common to all: toxicity to cultured cells; endpoint: CC50

Neighbouring rows are from separate reports.

compound | cell line | read by | value
CCOC(=O)c1ccc2c(c1)nc(-c1ccc(O)cc1O)n2CCN1CCCC1=O | Vero cell | MTT | >62.5 µg/mL
CC(C)(C)OC(=O)N1CCCC1C(=O)O/N=C1\c2ccccc2-c2c1c(N1CCN(c3ccccn3)CC1)nc1ccc(Br)cc21 | U-937 | MTT | >20 µg/mL
Nc1nc(NC2CC2)c2ncn([C@H]3C=C[C@@H](CO)C3)c2n1 | CEM-GFP | MTS | 422 µM
CCOC(=O)c1ccc2c(c1)nc(-c1ccc(O)cc1)n2CCN1CCCOC1 | Vero cell | MTT | >62.5 µg/mL
CCCCN(CCCC)c1cccc(C2(O)CCN(CCCC(=O)c3ccc(F)cc3)CC2)c1 | COSA5 |  | 10 µM
Nc1nc2c(ncn2[C@H]2CC[C@@H](CO)O2)c(=O)[nH]1 | ATH8 |  | >500 µM
NC(=O)c1cn(-c2ccccc2)c2cc(-c3ccncc3)ccc2c1=O | VERO |  | >6.25 µg/mL
Nc1ccn([C@H]2CC[C@@H](CO)O2)c(=O)n1 | BFU-E |  | 1 µM
COC(=O)[C@@H](CCN1[C@@H]2CC[C@@H]1CC(n1nnc3cccnc31)C2)c1ccccc1 | CHO |  | >10 µM
CCCCC#CCSc1ccccc1OC(C)=O | Feline thymocyte | MTT | 87 µM
COC(=O)C(C)NOP(OC[C@H]1C/C1=C/n1cnc2c(N)[nH]c(=O)nc21)Oc1ccccc1 | H-1 |  | >100 µM
O=c1[nH]c(=O)n([C@H]2C[C@H](O)[C@@H](CO)O2)cc1/C=C/Br | CD4+ T lymphocytes |  | 90 µg/mL
Cc1cccc2c1OP(=O)(OC[C@H]1O[C@@H](n3cc(/C=C/Br)c(=O)[nH]c3=O)C[C@@H]1OC(=O)C(C)(C)C)OC2 | HELF |  | 62.9 µg/mL
Nc1nc(=O)n([C@H]2O[C@@H](CO)C[C@H]2F)cc1I | PBM |  | >100 µM
CC(=O)O[C@H]1C[C@H](n2cc(/C=C/Br)c(=O)[nH]c2=O)O[C@@H]1COP1(=O)OCc2ccccc2O1 | HELF |  | 70 µg/mL
CC(C)(C)c1ccc(-n2cc(C(N)=O)c(=O)c3ccc(-c4ccncc4)cc32)cc1 | VERO |  | >25 µg/mL
CC(=O)O[C@@]12C[C@@H](C)[C@@]3(O)[C@@H](C=C(CO)C[C@]4(O)C(=O)C(C)=C[C@@H]34)[C@@H]1C2(C)C | J-Lat 10.6 | MTT | >100 µM
CC(C)(C)OC(=O)NC(Cc1ccccc1)C(=O)O/N=C1\c2ccccc2-c2c1c(N1CCN(c3ccccn3)CC1)nc1ccc(Br)cc21 | U-937 | MTT | >20 µg/mL
O=C(CCCN1CCC(O)(c2ccc(Cl)cc2)CC1)c1ccc(NC2CCCCC2)cc1 | COSA5 |  | 25 µM
O=C(O)P(=O)(O)O | CBMC | MTT | 897 µM
Cc1cn([C@H]2C[C@H](N=[N+]=[N-])[C@@H](CO)O2)c(=O)[nH]c1=O | CEM-GFP | MTS | >1000 µM
Nc1nc2c(ncn2COCCO)c(=O)[nH]1 | CD4+ T lymphocytes |  | >250 µg/mL
CCc1cn([C@H]2C[C@H](N=[N+]=[N-])[C@@H](CO)O2)c(=O)[nH]c1=O | CFU-GM |  | 1 µM
COC(=O)[C@@H]1CCCN1P(=O)(OC[C@H]1O[C@@H](N2C(=O)NC(=O)C(C)(Br)C2OC)C[C@@H]1N=[N+]=[N-])Oc1ccccc1 | HUMAN SPERM |  | >61 µM
CC[C@@H](CO)NCCN[C@@H](CC)CO | Vero cell | MTT | >62.5 µg/mL
C[C@H](Cn1cnc2c(N)ncnc21)OCP(=O)(O)O | SupT1 |  | >250 µg/mL
CC(=O)O[C@@H]1O[C@H](COC(=O)[C@H](CC(C)C)NC(=O)[C@H](Cc2ccccc2)NC(=O)CNC(=O)CNC(=O)[C@@H](N)Cc2ccc(O)cc2)[C@@H](OC(C)=O)[C@H](OC(C)=O)[C@H]1OC(C)=O | PBL |  | >140 µM
O=c1[nH]c(=O)n([C@H]2C[C@H](O)[C@@H](CO)O2)cc1/C=C/Br | U373-MG |  | >200 µg/mL
COC(=O)[C@@H]1CCCN1P(=O)(OC[C@H]1O[C@@H](N2C(=O)NC(=O)C(C)(Br)C2OC)C[C@@H]1N=[N+]=[N-])Oc1ccc(Br)cc1 | HUMAN SPERM |  | >300 µM
O=C1N(Cc2ccc(CO)cc2)[C@H](Cc2ccccc2)[C@H](O)[C@@H](O)[C@@H](Cc2ccccc2)N1Cc1ccc(CO)cc1 | MT-2/MT-4 |  | 67.5 µM
CC(C)(C)S(=O)(=O)C[C@@H](Cc1cccc2ccccc12)C(=O)N[C@@H](Cc1cnc[nH]1)C(=O)N[C@@H](Cc1ccccc1)[C@@H](O)[C@H](O)[C@H](Cc1ccccc1)NC(=O)[C@H](Cc1cnc[nH]1)NC(=O)[C@H](Cc1cccc2ccccc12)CS(=O)(=O)C(C)(C)C | PBLC |  | >10 µM
Cc1ccnc2c1NC(=O)c1cccnc1N2C1CC1 | CEM-GFP | MTS | 917 µM
CC(C)[C@H](NC(=O)OCc1ccccc1)C(=O)N[C@@H](Cc1ccccc1)[C@@H](O)[C@H](O)[C@H](Cc1ccccc1)NC(=O)[C@@H](NC(=O)OCc1ccccc1)C(C)C | PBLC |  | >0.1 µM
CC(C)(C)OC(=O)NCC(=O)OC1(C)c2ccccc2-c2c1c(-n1ccnc1)nc1ccc(Br)cc21 | U-937 | MTT | >10 µg/mL
CCOC(=O)C(N)(C1=CNC2C=C(C#N)C=CC12)C(F)(F)F | TZM-bl | MTT | 64.3 µM
Cc1cn([C@H]2C[C@H](N=[N+]=[N-])[C@@H](CO)O2)c(=O)[nH]c1=O | CMBC |  | 60 µM
Nc1nc2c(nc(Br)n2[C@@H]2C[C@H](CO)[C@H]2CO)c(=O)[nH]1 | ATH8 |  | >100 µM
Nc1ccn([C@H]2O[C@@H](CO)C[C@H]2F)c(=O)n1 | PBM |  | >100 µM
COc1cc(C(=O)O)ccc1O | BCC-1/KMC |  | 1338 µg/mL
NC(=O)c1cn(-c2ccc(F)cc2)c2cc(Cl)ccc2c1=O | VERO |  | >12.5 µg/mL
CCOC(=O)C(N)(C1=CNC2C=C(Br)C=CC12)C(F)(F)F | TZM-bl | MTT | 49.3 µM
O=c1[nH]c(=O)n(C2OC(CO)CC2F)cc1I | PBM |  | >100 µM
NC(=O)c1cn(-c2ccc(F)cc2)c2cc(Br)ccc2c1=O | VERO |  | >6.25 µg/mL
CO[C@H]1/C=C/O[C@@]2(C)Oc3c(C)c(O)c4c(O)c(c(/C=N/N5CCN(C)CC5)c(O)c4c3C2=O)NC(=O)/C(C)=C\C=C\[C@H](C)[C@H](O)[C@@H](C)[C@@H](O)[C@@H](C)[C@H](OC(C)=O)[C@@H]1C | Vero cell | MTT | >62.5 µg/mL
O=C(O)/C=C/c1ccc(O)c(O)c1 | BCC-1/KMC |  | 10293 µg/mL
O=c1ccn([C@@H]2C[C@H](CO)[C@H]2CO)c(=O)[nH]1 | ATH8 |  | >500 µM
Cc1cccc2c1OP(=O)(OC[C@H]1O[C@@H](n3cc(/C=C/Br)c(=O)[nH]c3=O)C[C@@H]1OC(=O)[C@H](N)CC(C)C)OC2 | HELF |  | >128 µg/mL
Nc1nc(Cl)nc2c1ncn2/C=C1\CC1CO | H-1 |  | >100 µM
CC(C)(C)S(=O)(=O)C[C@@H](Cc1cccc2ccccc12)C(=O)N[C@H](C(=O)N[C@@H](Cc1ccccc1)[C@@H](O)[C@H](O)[C@H](Cc1ccccc1)NC(=O)[C@@H](NC(=O)[C@H](Cc1cccc2ccccc12)CS(=O)(=O)C(C)(C)C)C1CCCCC1)C1CCCCC1 | PBLC |  | >0.06 µM
O=c1[nH]c(=O)n([C@H]2C[C@H](O)[C@@H](CO)O2)cc1/C=C/Br | OST TK-/HSV-1 TK+ |  | 0.142 µM
CC(C)C[C@H](NC(=O)[C@H](Cc1ccccc1)NC(=O)CNC(=O)CNC(=O)[C@@H](N)Cc1ccc(O[C@@H]2O[C@H](CO)[C@@H](O)[C@H](O)[C@H]2O)cc1)C(=O)O | PBL |  | >140 µM
Nc1[nH]c(=O)nc2c1ncn2/C=C1/C[C@H]1CO | DAUDI |  | >214 µM
NC(=O)c1cn(-c2ccc(F)cc2F)c2cc(-c3ccncc3)ccc2c1=O | VERO |  | >3.1 µg/mL
CCCCN(CCCC)c1ccc(C(=O)CCCN2CCC(O)(c3ccc(Cl)cc3)CC2)cc1 | COSA5 |  | 70 µM
Nc1ncnc2c1ncn2[C@H]1CC[C@@H](CO)O1 | ATH8 |  | >500 µM
Nc1nc(N)c2ncn(C[C@@H](CO)OCP(=O)(O)O)c2n1 | HSB-2 | MTT | 60 µM
Cc1cn([C@H]2C[C@H](F)[C@@H](CO)O2)c(=O)[nH]c1=O | CFU-GM |  | 10 µM
Nc1ccn(C[C@@H](CO)OCP(=O)(O)O)c(=O)n1 | OST TK- |  | 868 µM
CC(C)[C@H](NC(=O)[C@H](Cc1cccc2ccccc12)CS(=O)(=O)C(C)(C)C)C(=O)NC[C@@H](O)[C@H](O)CNC(=O)[C@@H](NC(=O)[C@H](Cc1cccc2ccccc12)CS(=O)(=O)C(C)(C)C)C(C)C | PBLC |  | >10 µM
CC(C)(C)c1cccc2c1OP(=O)(OC[C@H]1O[C@@H](n3cc(/C=C/Br)c(=O)[nH]c3=O)C[C@@H]1O)OC2 | HELF |  | 63.3 µg/mL
O=C1C(=O)c2ccccc2-c2ccccc21 | HEP2 Cell Line | MTT / absorbance | 10 µg/mL
Nc1ncnc2c1ncn2C[C@@H](CO)OCP(=O)(O)O | HSB-2 | MTT | 42 µM
OC[C@@H]1CC[C@H](n2cnc3c(NCc4ccccc4)ncnc32)O1 | Human fibroblasts | MTT | >5 µM
Cc1cc(C)c2c(c1)COP(=O)(OC[C@H]1O[C@@H](n3cc(/C=C/Br)c(=O)[nH]c3=O)C[C@@H]1O)O2 | HELF |  | 96 µg/mL
O=C1Nc2ccc(Cl)cc2[C@@](C#CC2CC2)(C(F)(F)F)O1 | CEM-GFP | MTS | 42 µM
O=c1[nH]c(=O)n([C@H]2C[C@H](O)[C@@H](COP3(=O)OCc4cc5ccccc5cc4O3)O2)cc1/C=C/Br | HELF |  | 85 µg/mL
COc1cc(/C=C/C(=O)O)ccc1O | BCC-1/KMC |  | 92.6 µg/mL
CCOC(=O)c1ccc2c(c1)nc(-c1ccc(O)cc1)n2CCN1CCCC1=O | Vero cell | MTT | >62.5 µg/mL
CC(C)C[C@H](NC(=O)[C@H](Cc1ccccc1)NC(=O)CNC(=O)CNC(=O)[C@@H](N)Cc1ccc(O)cc1)C(=O)OC[C@@H](O)[C@@H](O)[C@H](O)[C@@H](O)C=O | PBL |  | >140 µM
NC(=O)c1ncn([C@@H]2O[C@H](CO)[C@@H](O)[C@H]2O)n1 | LLC-MK2 | MTT / neutral red | 65 µg/mL
Cn1cc(C(N)=O)c(=O)c2ccc(-c3ccncc3)cc21 | VERO |  | >25 µg/mL
O=c1[nH]c(=O)n([C@@H]2O[C@H](CO)[C@@H](O)[C@@H]2O)cc1/C=C/Br | CD4+ T lymphocytes |  | >250 µg/mL
O=C1CN=C(c2ccccc2)c2ccccc2N1CCCC1CC(Br)=NO1 | J774.1 macrophage cell line | resazurin / absorbance | 22.5 µM
CN(C)C(=O)OC1(C)c2ccccc2-c2c1c(-n1ccnc1)nc1ccc(Br)cc21 | U-937 | MTT | >10 µg/mL
CCOC(=O)C(N)(c1cn(CCC(C)C)c2ccccc12)C(F)(F)F | TZM-bl | MTT | >112 µM
O=C1CN=C(c2ccccc2)c2ccccc2N1CCCCC1CC(Br)=NO1 | J774.1 macrophage cell line | resazurin / absorbance | 12.2 µM
O=C(CCCN1CCC(O)(c2ccc(Cl)cc2)CC1)c1ccc(F)cc1 | COSA5 |  | 500 µM
CCOC(=O)C(N)(c1c[nH]c2ccc(O)cc12)C(F)(F)F | TZM-bl | MTT | 79.4 µM
CCCCN(CCCC)c1cccc(C2(O)CCN(CCCC(=O)c3ccc(NC4CCCCC4)cc3)CC2)c1 | COSA5 |  | 20 µM
CC(C)(C)[C@H](NC(=O)[C@H](Cc1cccc2ccccc12)CS(=O)(=O)C(C)(C)C)C(=O)N[C@@H](Cc1ccccc1)[C@@H](O)[C@H](O)[C@H](Cc1ccccc1)NC(=O)[C@@H](NC(=O)[C@H](Cc1cccc2ccccc12)CS(=O)(=O)C(C)(C)C)C(C)(C)C | PBLC |  | >0.015 µM
COc1ccc(C(=O)Nc2ncnc3c2ncn3[C@H]2CC[C@@H](CO)O2)cc1 | Human fibroblasts | MTT | >5 µM
CCCCNc1cccc(C2(O)CCN(CCCC(=O)c3ccc(F)cc3)CC2)c1 | COSA5 |  | 140 µM
NC1=NC2C(C=CN2CC(CO)CCO)C(=O)N1 | CD4+ T lymphocytes |  | 230 µg/mL
Nc1ccc(CNc2ncnc3c2ncn3[C@H]2CC[C@@H](CO)O2)cc1 | Human fibroblasts | MTT | >5 µM
CC1(C)CC[C@]2(C(=O)O)CC[C@]3(C)C(=CC[C@@H]4[C@@]5(C)CC[C@H](O)C(C)(C)[C@@H]5CC[C@]43C)[C@@H]2C1 | BCC-1/KMC |  | 37.8 µg/mL
CCN(CCN(C)C)c1ccc(C(=O)CCCN2CCC(O)(c3ccc(Cl)cc3)CC2)cc1 | COSA5 |  | 60 µM

Repeating the first 5 entries:

compound | cell line | read by | value
CCOC(=O)c1ccc2c(c1)nc(-c1ccc(O)cc1O)n2CCN1CCCC1=O | Vero cell | MTT | >62.5 µg/mL
CC(C)(C)OC(=O)N1CCCC1C(=O)O/N=C1\c2ccccc2-c2c1c(N1CCN(c3ccccn3)CC1)nc1ccc(Br)cc21 | U-937 | MTT | >20 µg/mL
Nc1nc(NC2CC2)c2ncn([C@H]3C=C[C@@H](CO)C3)c2n1 | CEM-GFP | MTS | 422 µM
CCOC(=O)c1ccc2c(c1)nc(-c1ccc(O)cc1)n2CCN1CCCOC1 | Vero cell | MTT | >62.5 µg/mL
CCCCN(CCCC)c1cccc(C2(O)CCN(CCCC(=O)c3ccc(F)cc3)CC2)c1 | COSA5 |  | 10 µM

Blank or dashed fields: not listed here. CCn: concentration that lowers growth or viability of the cells by n%.